PubChem BioAssay AID1259414, Drosophila RNAi Screening Center – 2018

Aim: 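Fly genes that alter Wolbachia amount inside host cells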 (primary screen)
System: Drosophila JW18 cells infected with Wolbachia
Reagents: long dsRNA against Drosophila genes, 0.25 µg dsRNA per well of a 384-well plate
Timing: 5 days
Treatment: cells persistently infected with Wolbachia before knock-down; no added drug
Measured: 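Imaged fluorescence in situ signal for Wolbachia 23S rRNA per DAPI-counted host cell, given as a robust z-score within each plate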
Reading the numbers: Wolbachia per cell robust z: higher = more Wolbachia per host cell than the plate typical
Hit rule: 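Active if absolute robust z reaches 1.5 in two or more of three replicates, leaving out multi- or no-target dsRNAs, genes unexpressed in JW18 and A1 wells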
The deposit covers about 24,000 reagents; shown is a random part of those that have a named target and a result. Over the whole deposit, about 1,210 (5%) were called active. 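Inactive calls also include excluded dsRNAs with several or no targets, genes unexpressed in JW18, and well A1, regardless of score.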 A number with no mark means an inactive call. The numbers tell different reagents against one gene apart. Names joined by + are all predicted targets of the reagent.

| gene | reagent | Wolbachia per cell robust z, rep 1 | Wolbachia per cell robust z, rep 2 | Wolbachia per cell robust z, rep 3 |
| --- | --- | --- | --- | --- |
| Polr1F | 1 | 0.0523 | 0.856 | -0.705 |
| Polr1F | 2 | 1.09 | 0.697 | -0.133 |
| CG33752 | 1 | 0.302 | -1.39 | 1.05 |
| CG7381 | 1 | -0.98 | -0.371 | -0.391 |
| CG7381 | 2 | 0.244 | 1.2 | -0.255 |
| Ctr1B | 1 | -0.45 | -2.98 | -0.866 |
| CG42654 | 1 | -1.83 | -2.65 | 0.305 |
| DIP-iota | 1 | 1.52 | 0.444 | 1.21 |
| DIP-iota | 2 | 1.22 | 1.52 | 1.13 |
| CG12984 | 1 | -1.14 | 0.6 | -0.551 |
| CG9733 | 1 | -0.0776 | 0.655 | -0.223 |
| Lcp65Ag1 + Lcp65Ag2 + Lcp65Ag3 | 1 | 0.637 | -0.0373 | 0.804 |
| Hap40 | 1 | -3.72 | 1.06 | -0.655 |
| Hap40 | 2 | -0.101 | -0.877 | -0.929 |
| Cth | 1 | -1.09 | 0.373 | -0.146 |
| lectin-21Ca | 1 | -0.448 | -7.67 | -1.72 |
| ATPsynB | 1 | 0.833 | -0.653 | -0.864 |
| CG30340 | 1 | -2.19 | -0.356 | 0.0718 |
| fz2 | 1 | 0.727 | 1.53 | -1.08 |
| fz2 | 2 | -0.00364 | 0.198 | 0.0894 |
| CG42391 | 1 | -0.544 | 0.0826 | -2.29 |
| CG15475 | 1 | 0.293 | -0.292 | 0.827 |
| CG15475 | 2 | 1.25 | 1.32 | 1.08 |
| H15 | 1 | 0.231 | 1.33 | -1.13 |
| H15 | 2 | -0.0251 | 0.836 | 1.14 |
| H15 | 3 | -1.22 | -1.52 | 0.225 |
| CG13218 | 1 | 0.000792 | -0.113 | 0.253 |
| CG13218 | 2 | -0.931 | -1.05 | 0.373 |
| Or67b | 1 | 0.584 | -0.198 | -0.136 |
| CG42319 | 1 | -1.04 | -2.77 | -3.68 |
| CG42319 | 2 | -1.8 | -1.47 | -0.883 |
| CG42319 | 3 | 0.0057 | -0.627 | -1.69 |
| CG42319 | 4 | 2.6 | -0.724 | -4.19 |
| Gapdh1 | 1 | 0.599 | 0.0791 | 0.394 |
| Gapdh1 | 2 | -0.305 | -0.445 | -1.44 |
| RpL30 | 1 | 3.93 (active) | 2.9 | 4.64 |
| Tapdelta | 1 | 0.786 | 1.69 | 0.816 |
| sds22 | 1 | -0.158 | -0.098 | -8.88 |
| Lerp | 1 | 0.613 | 0.116 | -1.99 |
| Lerp | 2 | -1.93 | 0.839 | 0.517 |
| Lerp | 3 | 0.685 | 1.33 | 0.371 |
| Lerp | 4 | 0.607 | 0.395 | 1.16 |
| GCS2beta | 1 | -1.44 | 0.0732 | -1.09 |
| GCS2beta | 2 | -8.08 (active) | -2.27 | 0.622 |
| CG14419 | 1 | -4.77 | 0.0367 | 0.256 |
| CG14419 | 2 | -1.36 | -0.506 | 0.676 |
| Trmt6 | 1 | -1.1 | -9.04 | -0.629 |
| Vml | 1 | 0.465 | 0.274 | -0.471 |
| Vml | 2 | 0.209 | 0.912 | 0.815 |
| Vml | 3 | -0.818 | -0.707 | -0.0462 |
| Vml | 4 | 1.22 | 1.1 | 1.28 |
| obst-G | 1 | 0.842 | 0.327 | 1.31 |
| snRNA:U12 | 1 | 0.364 | -1.22 | -0.424 |
| CG5916 | 1 | -1.07 | 0.36 | 0.353 |
| CG9915 | 1 | -0.651 | 0.762 | 0.747 |
| CG9915 | 2 | -0.386 | -0.714 | 0.473 |
| CG9915 | 3 | 0.266 | -0.588 | 0.031 |
| CG12123 | 1 | -1.18 | -2.39 | 0.0038 |
| GstE6 | 1 | -4.18 | 0.6 | 0.643 |
| CG1703 | 1 | -1.17 | -0.59 | 0.239 |
| Rabex-5 | 1 | -0.488 | -0.442 | -8.96 |
| Rabex-5 | 2 | 0.492 | 0.181 | -1.23 |
| PCNA2 | 1 | -1.16 | -1.77 | -0.0171 |
| CG33768 | 1 | -0.249 | 0.00931 | -0.532 |
| CG31464 | 1 | -0.0741 | 0.364 | -0.0579 |
| pcx | 1 | -4.15 | 0.556 | 0.566 |
| pcx | 2 | 0.00474 | 0.153 | -0.199 |
| pcx | 3 | 0.468 | -0.0774 | 0.0655 |
| pcx | 4 | -0.587 | -2.55 | -0.927 |
| pcx | 5 | 0.681 | 0.191 | -1.06 |
| pcx | 6 | 0.615 | 0.853 | 0.359 |

Look-ups from above.
CG42319 #3, Wolbachia per cell robust z, rep 3 = -1.69
CG9915 #3, Wolbachia per cell robust z, rep 1: 0.266
Under “Wolbachia per cell robust z, rep 2”, Rabex-5 #2 reads 0.181
